A mixed list of measured activities; the numbers were collected in NIAID ChemDB.

Shared fields: growth or infection tests

Percent inhibition refers to the dose given; in toxicity tests it is the harm to the cells. Two numbers with a dash give a range or band. Conditions beyond the fields shown may differ between rows. Blank or dashed fields: not listed here. A number after MIC or MFC names an inhibition level or a share of isolates.

smiles	strain	tested at	setting	endpoint	species	method	result
FC(F)(F)c1ccc(N2CCC3(CCN(c4ccc(Nc5ncnc6cc[nH]c56)cc4)CC3)CC2)cc1				MIC50	Mycobacterium bovis BCG	luminescence	>50 µM
CCCCCCCCN(CCCCCCCC)C(=O)NC(CCC(=O)O)(CCC(=O)O)CCC(=O)O	ATCC 927			MIC	Mycobacterium marinum		18 µg/mL
Cc1ccn2c(C(=O)NCc3ccc(-c4ccccc4)cc3)c(C)nc2c1				MIC50	Mycobacterium ulcerans	fluorescence	0.1–1 µg/mL
CCc1nc2ccc(Cl)cn2c1C(=O)NCc1ccc(N2CCN(c3ccc(OC(F)(F)F)cc3)C3(CCCC3)C2)c(F)c1		0.086 µM		inhibition	Mycobacterium avium	fluorescence	85%
Fc1cc(Nc2nnc(-c3ccncc3)o2)ccc1Br	My 235/80		7 d	MIC100	Mycobacterium kansasii	broth dilution	>125 µM
O=S1(=O)CCN(c2ccc(CNc3ncnc4ccsc34)cc2)CC1				MIC50	Mycobacterium bovis BCG	luminescence	>20 µM
O=c1oc2ccc(Cl)cc2c(=S)n1-c1ccc(C(F)(F)F)cc1	My 235/80		21 d	MIC	Mycobacterium kansasii		16 µM
Cc1nc2ccc(Cl)cn2c1C(=O)NCc1ccc(N2C[C@H](C)N(c3ccc(OCC(F)(F)F)nc3)C[C@H]2C)c(F)c1.Cl		0.1 µM		inhibition	Mycobacterium avium	fluorescence	85%
FC(F)(F)c1ccc(N2CCN(c3ccc(Nc4ncnc5ccccc45)cc3)CC2)cc1				MIC50	Mycobacterium bovis BCG	luminescence	>10 µM
CCCCCCCCCCCC(CCCCCCCCCCC)OC(=O)NC(CCC(=O)O)(CCC(=O)O)CCC(=O)O	AAy-P-1			MIC	Mycobacterium abscessus		27 µg/mL
Cc1ccn2c(C(=O)NCc3ccc(C4CCN(c5ccc(OC(F)(F)F)cn5)CC4)cc3F)c(C)nc2c1		0.089 µM		inhibition	Mycobacterium avium	fluorescence	85%
Cc1ccc2oc(=S)n(-c3cccc(F)c3)c(=S)c2c1	6509/96		21 d	MIC	Mycobacterium kansasii		16 µM
CO[C@@]1(NC(=O)C2SC(=C(C(N)=O)C(=O)[O-])S2)C(=O)N2C(C(=O)[O-])=C(CSc3nnnn3C)CS[C@@H]21	1048			MIC	Mycobacterium fortuitum		50 µg/mL
FC(F)(F)c1ccc(CNc2ncnc3ccccc23)c(N2CCOCC2)c1				MIC50	Mycobacterium bovis BCG	luminescence	>10 µM
O=c1oc2ccc(Br)cc2c(=S)n1-c1ccc(Cl)c(Cl)c1	6509/96		14 d	MIC	Mycobacterium kansasii		4 µM
Cc1ccc2ncc(C(=O)NCc3ccc(N(C)C)cc3)n2c1				MIC50	Mycobacterium ulcerans	fluorescence	1–10 µg/mL
O=C(NNC(=O)c1ccncc1)Nc1cc(Cl)cc(Cl)c1	My 6509/96		7 d	MIC100	Mycobacterium kansasii	broth dilution	125 µM
CO[C@H]1/C=C/O[C@@]2(C)Oc3c(C)c(O)c4c(O)c(c5c(c4c3C2=O)NC2(CCN(CC(C)C)CC2)N=5)=NC(=O)/C(C)=C\C=C\[C@H](C)[C@H](O)[C@@H](C)[C@@H](O)[C@@H](C)[C@H](OC(C)=O)[C@@H]1C	92			MIC	Mycobacterium avium intracellulare		0.125 µg/mL
COc1ccc(Nc2nnc(-c3ccncc3)o2)cc1	My 6509/96		21 d	MIC100	Mycobacterium kansasii	broth dilution	>125 µM
O=c1oc2ccc(Br)cc2c(=S)n1-c1ccc(F)cc1	6509/96		21 d	MIC	Mycobacterium kansasii		16 µM
CC(C)(C)c1ccc(NC(=O)NNC(=O)c2ccncc2)cc1	My 235/80		21 d	MIC100	Mycobacterium kansasii	broth dilution	125 µM
CCCCCCCCCCCCCCCCCCCCCOC(=O)NC(CCC(=O)O)(CCC(=O)O)CCC(=O)O	ATCC 927			MIC	Mycobacterium marinum		9 µg/mL
FC(F)(F)Oc1ccc(C2CCN(c3ccc(CNc4ncnc5ccsc45)cc3)CC2)cc1				MIC50	Mycobacterium bovis BCG	luminescence	>20 µM
Clc1ccc(Nc2nnc(-c3ccncc3)o2)cc1Cl	My 6509/96		21 d	MIC100	Mycobacterium kansasii	broth dilution	>125 µM
CCc1nc2cc(F)ccn2c1C(=O)NCc1ccc(N2CCN(c3ccc(OCC(F)(F)F)cc3)[C@@H](C)C2)c(F)c1.Cl		0.0046 µM		inhibition	Mycobacterium avium	fluorescence	85%
CO[C@@]1(NC(=O)Cc2ccccc2)C(=O)N2C(C(=O)[O-])=C(CSc3nnc(C)s3)CSC21	4-May			MIC	Mycobacterium fortuitum		25 µg/mL
CO[C@H]1/C=C/O[C@@]2(C)Oc3c(C)c(O)c4c(O)c(cc(O)c4c3C2=O)NC(=O)/C(C)=C\C=C\[C@H](C)[C@H](O)[C@@H](C)[C@@H](O)[C@@H](C)[C@H](OC(C)=O)[C@@H]1C	EO-P-1			MIC	Mycobacterium chelonae		25 µg/mL
CN(C)c1ccc(CNC(=O)c2c(Cl)nc3ccccn23)cc1F				MIC50	Mycobacterium ulcerans	fluorescence	0.1–1 µg/mL
COc1ccc2nc(C)cc(NCCc3ccc(OC(F)(F)F)cc3)c2c1				MIC50	Mycobacterium bovis BCG	luminescence	20 µM
COc1ccc2oc(=O)n(-c3ccc(Cl)cc3)c(=S)c2c1	6509/96		14 d	MIC	Mycobacterium kansasii		16 µM
FC(F)(F)c1ccc(CCNc2ncnc3ccccc23)cc1				MIC50	Mycobacterium bovis BCG	luminescence	>20 µM
CO[C@@]1(NC(=O)Cc2ccccc2)C(=O)N2C(C(=O)O)=C(COC(C)=O)CSC21	1263			MIC	Mycobacterium fortuitum		50 µg/mL
CCCCCCCCCCCCCCCCCCCCCCOC(=O)NC(C)(CCC(=O)O)CCC(=O)O	EO-P-1			MIC	Mycobacterium chelonae		630 µg/mL
FC(F)(F)c1ccc(CNc2ncnc3ccccc23)cc1				MIC50	Mycobacterium bovis BCG	luminescence	>20 µM
Fc1ccc2oc(=S)n(-c3cccc(Cl)c3)c(=S)c2c1	6509/96		21 d	MIC	Mycobacterium kansasii		2 µM
FC(F)(F)c1ccc(Oc2ccc(Nc3ncnc4cc(C(F)(F)F)ccc34)cc2)cc1				MIC50	Mycobacterium bovis BCG	luminescence	>20 µM
Cc1nc2ccccn2c1C(=O)NCC1CCCCCC1				MIC50	Mycobacterium ulcerans	fluorescence	1–10 µg/mL
CCc1nc2ccc(Cl)cn2c1C(=O)NCc1ccc(N2CCN(c3ccc(OC(F)(F)F)cc3)[C@@H](C)C2)c(Cl)c1.Cl		0.009 µM		inhibition	Mycobacterium avium	fluorescence	85%
Fc1cc(Nc2ncnc3ccccc23)ccc1N1CCN(c2ccc(C(F)(F)F)cc2)CC1				MIC50	Mycobacterium bovis BCG	luminescence	>50 µM
CCCCCCCCCCCCCCCC(=O)NC(CCC(=O)O)(CCC(=O)O)CCC(=O)O	AAy-P-1			MIC	Mycobacterium abscessus		144 µg/mL
FC(F)(F)c1ccc(Oc2ccc(Nc3ncnc4cc(Br)ccc34)cc2)cc1				MIC50	Mycobacterium bovis BCG	luminescence	>20 µM
CC(C)N=C(N)/N=C(\N)NOCCCOc1cc(Cl)c(Cl)cc1Cl	517			MIC	Mycobacterium avium complex		32 µg/mL
Cc1nc2ccc(Cl)cn2c1C(=O)NCc1ccc(N2C[C@H](C)N(c3ccc(OC(F)(F)F)cc3)C[C@H]2C)c(F)c1		0.022 µM		inhibition	Mycobacterium avium	fluorescence	85%
FC(F)(F)c1ccc(Oc2ccccc2Nc2ncnc3ccccc23)cc1				MIC50	Mycobacterium bovis BCG	luminescence	>50 µM
Cc1cn2c(C(=O)NCc3ccc(N4CCC5(CCN(c6ccc(C(F)(F)F)cc6)CC5)CC4)c(F)c3)c(C)nc2s1		0.029 µM		inhibition	Mycobacterium avium	fluorescence	85%
O=C(NNC(=O)c1ccncc1)Nc1ccc(C(F)(F)F)cc1	My 235/80		21 d	MIC100	Mycobacterium kansasii	broth dilution	>125 µM
CN(C)c1ccc(CCNc2ncnc3ccsc23)cc1				MIC50	Mycobacterium bovis BCG	luminescence	>50 µM
CCCCCCCCCCCCCCCOC(=O)NC(CCC(=O)O)(CCC(=O)O)CCC(=O)O	AAy-P-1			MIC	Mycobacterium abscessus		144 µg/mL
Cc1ccc2oc(=S)n(-c3ccc(C(F)(F)F)cc3)c(=S)c2c1	6509/96		14 d	MIC	Mycobacterium kansasii		16 µM
FC(F)(F)c1ccc(N2CCC(Oc3ccc(Nc4ncnc5ccccc45)cc3)CC2)cc1				MIC50	Mycobacterium bovis BCG	luminescence	>10 µM
Cc1ccc2oc(=O)n(-c3cccc(Cl)c3)c(=S)c2c1	6509/96		21 d	MIC	Mycobacterium kansasii		4 µM
FC(F)(F)Oc1ccc(Oc2ccc(Nc3ncnc4ccsc34)cc2)cc1				MIC50	Mycobacterium bovis BCG	luminescence	>20 µM
CO[C@@]1(NC(=O)CSCC#N)C(=O)N2C(C(=O)O)=C(CSc3nnnn3C)CS[C@@H]21	4-May			MIC	Mycobacterium fortuitum		6.25 µg/mL
O=S(=O)(c1ccc(OC(F)(F)F)cc1)C1CCN(c2ccc(Nc3ncnc4cc(F)ccc34)cc2)CC1				MIC50	Mycobacterium bovis BCG	luminescence	>50 µM
COc1ccc2oc(=S)n(-c3ccc(F)cc3)c(=S)c2c1	My 235/80		14 d	MIC	Mycobacterium kansasii		16 µM
FC(F)(F)Oc1ccc(CCNc2ncnc3cc(Cl)ccc23)cc1				MIC50	Mycobacterium bovis BCG	luminescence	>20 µM
CCc1nc(N)nc(N)c1-c1ccc(Cl)cc1	DW30			MIC	Mycobacterium avium complex		32 µg/mL
Fc1ccc2c(Nc3ccc(Oc4ccc(C(F)(F)F)cc4)cc3)ncnc2c1				MIC50	Mycobacterium bovis BCG	luminescence	>20 µM
CCc1nc2cc(F)ccn2c1C(=O)NCc1ccc(N2C[C@H](C)N(c3ccc(OCC(F)(F)F)nc3)C[C@H]2C)c(F)c1.Cl		0.12 µM		inhibition	Mycobacterium avium	fluorescence	85%
Fc1ccc2c(Nc3ccc(N4CCOCC4)c(F)c3)ncnc2c1				MIC50	Mycobacterium bovis BCG	luminescence	>50 µM
CO[C@@]1(NC(=O)CCCC(N)C(=O)O)C(=O)N2C(C(=O)O)=C(COC(N)=O)CSC21	1059			MIC	Mycobacterium fortuitum		>100 µg/mL
Cc1nc2ccccn2c1C(=O)NCc1ccc(OC(F)(F)F)cc1				MIC50	Mycobacterium ulcerans	fluorescence	0.1–1 µg/mL
Fc1ccc2c(Nc3ccc(Oc4ccccc4)cc3)ncnc2c1				MIC50	Mycobacterium bovis BCG	luminescence	>20 µM

Again, the opening 9 rows:

FC(F)(F)c1ccc(N2CCC3(CCN(c4ccc(Nc5ncnc6cc[nH]c56)cc4)CC3)CC2)cc1 ; endpoint: MIC50 ; species: Mycobacterium bovis BCG ; method: luminescence ; result: >50 µM
CCCCCCCCN(CCCCCCCC)C(=O)NC(CCC(=O)O)(CCC(=O)O)CCC(=O)O ; strain: ATCC 927 ; endpoint: MIC ; species: Mycobacterium marinum ; result: 18 µg/mL
Cc1ccn2c(C(=O)NCc3ccc(-c4ccccc4)cc3)c(C)nc2c1 ; endpoint: MIC50 ; species: Mycobacterium ulcerans ; method: fluorescence ; result: 0.1–1 µg/mL
CCc1nc2ccc(Cl)cn2c1C(=O)NCc1ccc(N2CCN(c3ccc(OC(F)(F)F)cc3)C3(CCCC3)C2)c(F)c1 ; tested at: 0.086 µM ; endpoint: inhibition ; species: Mycobacterium avium ; method: fluorescence ; result: 85%
Fc1cc(Nc2nnc(-c3ccncc3)o2)ccc1Br ; strain: My 235/80 ; setting: 7 d ; endpoint: MIC100 ; species: Mycobacterium kansasii ; method: broth dilution ; result: >125 µM
O=S1(=O)CCN(c2ccc(CNc3ncnc4ccsc34)cc2)CC1 ; endpoint: MIC50 ; species: Mycobacterium bovis BCG ; method: luminescence ; result: >20 µM
O=c1oc2ccc(Cl)cc2c(=S)n1-c1ccc(C(F)(F)F)cc1 ; strain: My 235/80 ; setting: 21 d ; endpoint: MIC ; species: Mycobacterium kansasii ; result: 16 µM
Cc1nc2ccc(Cl)cn2c1C(=O)NCc1ccc(N2C[C@H](C)N(c3ccc(OCC(F)(F)F)nc3)C[C@H]2C)c(F)c1.Cl ; tested at: 0.1 µM ; endpoint: inhibition ; species: Mycobacterium avium ; method: fluorescence ; result: 85%
FC(F)(F)c1ccc(N2CCN(c3ccc(Nc4ncnc5ccccc45)cc3)CC2)cc1 ; endpoint: MIC50 ; species: Mycobacterium bovis BCG ; method: luminescence ; result: >10 µM